Data on one sequence can be found in paper PMC6957213.

Where a protein sequence is shown, tags need not be part of it.

The data set deals with T1, GdhR (Neisseria gonorrhoeae FA19).
T1 sequence (looked up): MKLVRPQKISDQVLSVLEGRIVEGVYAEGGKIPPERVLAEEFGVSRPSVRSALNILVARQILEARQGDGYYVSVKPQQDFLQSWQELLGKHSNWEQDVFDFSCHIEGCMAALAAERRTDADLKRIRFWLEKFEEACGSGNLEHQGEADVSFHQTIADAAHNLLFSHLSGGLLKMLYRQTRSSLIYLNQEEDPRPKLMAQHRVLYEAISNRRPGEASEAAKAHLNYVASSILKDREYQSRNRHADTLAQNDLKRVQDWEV
Put plainly: DNase I footprinting. Conditions: 0.4-6.0 ug GdhR, protects +6 to +48; recombinant protein; residues 1-259; label: 5' 6-FAM (coding strand), 5' HEX (template strand); probe letters rebuilt from the primers and the genome.

In the case of “GTGGACGGGGACGGCGCGGTATTCGTGCCGCCGGAAGAATGCTGAAAATGCCGTCTGAAGCCTTTCGGGCGGCTTTTTCTACACGCCCCTTTCCCACACTCCCTCCGCCGCATCATCACCATCCTTAACCCGCATTAATAGCCATTATCGATAAAATGCTTGACCGATTACATAAGATTACGTAAAGTGTGCAAACGCATAATAATTGGTCTTACCAATTTATCTTTTAACCAAAATATCGGGTGTGCGGGATTTGAACGTCTTTCCAAACCTCGACGCGCCTTATGATGCAAATGCCTAAAAAGGATTCGTTATGGCACTTTTCCTCAGCATATTCCCCATCGTCCTGCTGATTTGGCTGATGGTGAAAAAAAACAGTATGCCTTCCTACGTCGCACTGCCGATTACCGCAGTGCTGATTTACGCCATCAAACTTTTCTACTTCGGCGATGCGGGAATGCTGCTCAACGCCACCGCCGCTTCCGGCCTCGTCAAAACGCTCACGCCGATTACCGTGATTTTCGGCGCGATTATGTTCAACCGTATGATGGAAACCACGGGCTGCATCGATGT (double strand) [lctP promoter footprint probe]”, the binding result was “binds”.
